Pooled drug test results. Numbers come from NIAID ChemDB, via PubChem.

Shared fields: target-level tests

ICn: concentration for n% inhibition. a–b is a range or a potency band. Inhibition is in % at the dose shown (toxicity tests: loss of growth or viability). Rows are shuffled and stem from different studies.

CSc1ccc(NC(=O)Nc2cccc(-c3nc(C(=O)O)c(O)c(=O)[nH]3)c2)cc1 ; species: Hepatitis C virus ; target: HCV polymerase ; endpoint: IC50 ; value: <100 µM
O=C(O)c1sc(-c2ccccc2)cc1NS(=O)(=O)c1cc(Cl)sc1Cl ; species: Hepatitis C virus ; target: NS3 ATPase ; endpoint: IC50 ; value: 5–20 µM
O=C1/C(=C\c2cccnc2)SC(=S)N1NS(=O)(=O)c1ccccc1 ; species: Hepatitis C virus ; target: NS5B polymerase ; endpoint: IC50 ; value: ≤30 µM
C=CCN(C(=O)CC1CCCC1)c1cc(-c2ccccc2)sc1C(=O)O ; species: Hepatitis C virus ; target: NS3 ATPase ; endpoint: IC50 ; value: <5 µM
O=C1/C(=C\c2ccc(F)c(Br)c2)SC(=S)N1NS(=O)(=O)c1ccccc1 ; species: Hepatitis C virus ; target: NS5B polymerase ; endpoint: IC50 ; value: ≤30 µM
CCCC(=O)N(CC)c1cc(-c2ccccc2)sc1C(=O)O ; species: Hepatitis C virus ; target: NS3 ATPase ; endpoint: IC50 ; value: 5–20 µM
Cc1coc(/C=C2/SC(=S)NC2=O)c1C ; species: Hepatitis C virus ; target: NS5B polymerase ; endpoint: IC50 ; value: ≤30 µM
C=CC(=O)NCC(=O)N1C[C@H](Oc2nccc3ccc(Br)cc23)C[C@H]1C(=O)N[C@]1(C(=O)NS(=O)(=O)C2CC2)C[C@H]1C=C ; species: Hepatitis C virus ; strain or isolate: 1b D168V ; target: Nonstructural protein 3/4A ; method: FRET ; endpoint: IC50 ; value: 1.261 µM
Cc1ccccc1S(=O)(=O)Nc1cc(-c2ccc(Cl)c(F)c2)sc1C(=O)O ; species: Hepatitis C virus ; target: NS3 ATPase ; endpoint: IC50 ; value: <5 µM
CC(C)COC(=O)Nc1ccsc1-c1nc(C(=O)O)c(O)c(=O)[nH]1 ; species: Hepatitis C virus ; target: HCV polymerase ; endpoint: IC50 ; value: <25 µM
O=C(O)c1sc(-c2ccccc2)cc1N(Cc1ccc(C(F)(F)F)cc1)C(=O)C1CC1 ; species: Hepatitis C virus ; target: NS3 ATPase ; endpoint: IC50 ; value: 5–20 µM
O=C(O)c1nc(-c2nccs2)[nH]c(=O)c1O ; species: Hepatitis C virus ; target: HCV polymerase ; endpoint: IC50 ; value: <100 µM
Cc1ccccc1S(=O)(=O)Nc1cc(-c2ccccc2F)sc1C(=O)O ; species: Hepatitis C virus ; target: NS3 ATPase ; endpoint: IC50 ; value: <5 µM
CN1CCN(c2cc(C(=O)Nc3ccc4[nH]ncc4c3)c(F)cc2F)CC1 ; species: Hepatitis B virus ; target: Reverse transcriptase ; endpoint: inhibition ; tested at: 0.01 µg/mL ; value: 43%
Cc1ccc(C)c(S(=O)(=O)NN2C(=O)/C(=C\c3ccc(Cl)c(Cl)c3)SC2=S)c1 ; species: Hepatitis C virus ; target: NS5B polymerase ; endpoint: IC50 ; value: ≤30 µM
O=C(Nc1ccsc1-c1nc(C(=O)O)c(O)c(=O)[nH]1)OCc1ccccc1-c1ccccc1 ; species: Hepatitis C virus ; target: HCV polymerase ; endpoint: IC50 ; value: <25 µM
CN1CCN(c2cc(C(=O)Nc3ccc4cn[nH]c4c3)c(F)cc2F)CC1 ; species: Hepatitis C virus ; target: Nonstructural protein 5B ; endpoint: inhibition ; tested at: 10 µg/mL ; value: 43%
CC(C)(C)OC(=O)N[C@H](C(=O)Nc1ccsc1-c1nc(C(=O)O)c(O)c(=O)[nH]1)c1ccccc1 ; species: Hepatitis C virus ; target: HCV polymerase ; endpoint: IC50 ; value: <25 µM
CN1CCNCCC1c1cc(C(=O)Nc2ccc3[nH]ncc3c2)c(F)cc1F ; species: Hepatitis B virus ; target: Reverse transcriptase ; endpoint: IC50 ; value: 0.1–1 µg/mL
Cc1ccc(C(=O)N(c2cc(-c3ccccc3)sc2C(=O)O)C2CCN(C(=O)OC(C)(C)C)CC2)cc1 ; species: Hepatitis C virus ; target: NS3 ATPase ; endpoint: IC50 ; value: <5 µM
O=C(Nc1ccc2[nH]ncc2c1)c1cc(N2CCC(O)CC2)c(F)cc1F ; species: Hepatitis B virus ; target: Reverse transcriptase ; endpoint: inhibition ; tested at: 1 µg/mL ; value: 69%
O=C1NC(=S)S/C1=C/c1ccc(Br)cc1 ; species: Hepatitis C virus ; target: NS5B polymerase ; endpoint: IC50 ; value: ≤30 µM
O=C(CCC(=O)Nc1ccsc1-c1nc(C(=O)O)c(OCc2cc(F)ccc2F)c(=O)[nH]1)NO ; species: Hepatitis C virus ; target: HCV polymerase ; endpoint: IC50 ; value: <50 µM
O=C1/C(=C\c2ccc(Cl)cc2F)SC(=S)N1NS(=O)(=O)c1ccccc1 ; species: Hepatitis C virus ; target: NS5B polymerase ; endpoint: IC50 ; value: ≤30 µM
O=C(O)/C=C/c1cccc(-c2nc(C(=O)O)c(O)c(=O)[nH]2)c1 ; species: Hepatitis C virus ; target: HCV polymerase ; endpoint: IC50 ; value: <100 µM
CC1=NCCN1c1cc(C(=O)Nc2ccc3[nH]ncc3c2)c(F)cc1F ; species: Hepatitis B virus ; target: Reverse transcriptase ; endpoint: inhibition ; tested at: 0.01 µg/mL ; value: 19%
COCC(C)N(C(=O)c1ccc(Cl)cc1Cl)c1cc(-c2ccccc2)sc1C(=O)O ; species: Hepatitis C virus ; target: NS3 ATPase ; endpoint: IC50 ; value: <5 µM
COc1ccc(/C=C2/SC(=S)N(NS(=O)(=O)c3ccccc3)C2=O)cc1 ; species: Hepatitis C virus ; target: NS5B polymerase ; endpoint: IC50 ; value: ≤30 µM
Cc1ccccc1S(=O)(=O)Nc1cc(-c2ccc(F)cc2)sc1C(=O)O ; species: Hepatitis C virus ; target: NS3 ATPase ; endpoint: IC50 ; value: <5 µM
O=C(Nc1ccc2[nH]ncc2c1)c1cc(N2CCN(CCO)CC2)c(F)cc1F ; species: Hepatitis C virus ; target: Nonstructural protein 5B ; endpoint: inhibition ; tested at: 1 µg/mL ; value: 15%
O=C1/C(=C\c2ccc(Cl)c([N+](=O)[O-])c2)SC(=S)N1NS(=O)(=O)c1ccccc1 ; species: Hepatitis C virus ; target: NS5B polymerase ; endpoint: IC50 ; value: ≤30 µM
CSc1ccccc1NC(=O)Nc1cccc(-c2nc(C(=O)O)c(O)c(=O)[nH]2)c1 ; species: Hepatitis C virus ; target: HCV polymerase ; endpoint: IC50 ; value: <100 µM